# Measurements reported in PubChem BioAssay AID504761 (Drosophila RNAi Screening Center, 2011).
# Test: 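Fly genes whose silencing reduces dengue virus type 2 infection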 (primary screen)
# Cells: D.Mel-2 cells from Drosophila
# Knock-down reagent: long dsRNA against Drosophila genes
# Treatment: infection with dengue virus type 2; dose and infection time not stated
# Detection: 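Per well on two replicate plates, imaging gave the percent of cells positive for viral envelope protein, ranked by infection, and a nuclear count of cells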
# Reading the numbers: infection score: higher = more virus-infected cells
# Rule for the call: 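Low infection ranks in the two replicates (chance level up to 0.065) followed by a retest with a 1.5-fold or larger significant decrease, p below 0.05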
# Calls: active = confirmed: knock-down lowers infection; inactive = not picked or not confirmed
# In all, the deposit lists about 22,000 reagents; shown is a random part of those that have a named target and a result. In the full data, 116 (0.52%) were called active. 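Calls depend on retest data that are not deposited; infection was ranked per plate without normalising between plates; the unit of the infection score is not given.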 Not all columns of the deposit are shown. The record does not give: the amount of reagent, the time to read-out.
gene,DRSC id,"infection score, replicate 1","infection score, replicate 2",outcome
Or59b,DRSC04632,4.99,7.55,inactive
CG4367,DRSC15568,4.4,0.61,inactive
alphaSnap,DRSC11285,7.46,1.73,inactive
alphaSnap,DRSC29788,9.5,10.3,inactive
Pmm2,DRSC09780,0.58,3.58,inactive
Pmm2,DRSC28987,8.29,15.5,inactive
CG30088,DRSC21764,5.51,6.73,inactive
CG30088,DRSC24797,2.91,1.43,inactive
Cyp4d8,DRSC11131,8.13,3.53,inactive
Cyp4d8,DRSC29268,22.2,8.49,inactive
CG8671,DRSC03102,10.7,4.02,inactive
CG8671,DRSC03103,18,13.6,inactive
CG8671,DRSC27179,1.65,7.89,inactive
Cp7Fa,DRSC18032,10.3,11.9,inactive
Cp7Fa,DRSC18033,7.89,11.5,inactive
Cp7Fa,DRSC24279,4.69,5,inactive
Invadolysin,DRSC15527,2.05,2.79,inactive
Cmtr1,DRSC18400,1.81,2.37,inactive
Cmtr1,DRSC27812,18.4,6.59,inactive
Fatp (retired record),DRSC03054,3.12,14,inactive
CG32669,DRSC18864,7.1,8.05,inactive
Sema2a,DRSC07551,22.9,1.16,inactive
CG8202,DRSC16396,3.05,8.56,inactive
fusl,DRSC02351,5.5,2.4,inactive
fusl,DRSC28283,12.9,19.5,inactive
Naa15-16,DRSC19440,1.58,2.54,inactive
Naa15-16,DRSC22846,0.86,3.64,inactive
Rpn9,DRSC16840,12.5,12.5,inactive
Rpn9,DRSC27177,1,11.7,inactive
roh,DRSC04003,0.55,0.29,inactive
lace,DRSC03564,26.9,11.5,inactive
Oct-TyrR,DRSC11883,4.5,3.28,inactive
Rab9Fb,DRSC19854,5.73,8.82,inactive
Ggamma1,DRSC07435,1.86,4.36,inactive
CG11964,DRSC14447,18.5,18.2,inactive
CG11964,DRSC25900,2.18,2.38,inactive
D19A,DRSC11133,4.84,9.28,inactive
D19A,DRSC26967,5.14,6.51,inactive

Ordered by “infection score, replicate 2” (highest first): 2 of the entries above
gene,DRSC id,"infection score, replicate 1","infection score, replicate 2",outcome
alphaSnap,DRSC11285,7.46,1.73,inactive
CG4367,DRSC15568,4.4,0.61,inactive

Continued:
gene,DRSC id,"infection score, replicate 1","infection score, replicate 2",outcome
Gcna,DRSC18553,3.17,2.1,inactive
fry,DRSC08993,2.1,0.7,inactive
fry,DRSC10172,1.13,4.39,inactive
fry,DRSC10709,1.57,1.3,inactive
fry,DRSC10712,10.3,11.3,inactive
Acp26Aa,DRSC01855,2.06,3.04,inactive
Obp73a,DRSC09907,2.47,17.8,inactive
CG7322,DRSC20036,2.94,2.04,inactive
CG7322,DRSC26735,5.35,3.33,inactive
arm,DRSC18738,14.7,21.2,inactive
BORCS5,DRSC19427,0.95,6.13,inactive
BORCS5,DRSC26187,15.2,3.29,inactive
Ip6k,DRSC04054,15.1,41.5,inactive
Ip6k,DRSC24285,6.67,8.38,inactive
alpha-Man-Ia,DRSC17642,4.64,3.78,inactive
alpha-Man-Ia,DRSC18162,3.52,9.37,inactive
alpha-Man-Ia,DRSC18163,10.3,15.9,inactive
alpha-Man-Ia,DRSC18735,12.8,8.07,inactive
alpha-Man-Ia,DRSC23100,5.74,16.1,inactive
CG8673,DRSC03105,2.01,2.72,inactive
